A mixed list of measured activities; the numbers were collected in NIAID ChemDB.

Common to all: tests in culture; organism: Herpes simplex virus 1; read-out: EC50

Blank or dashed fields: not listed here.

SMILES | strain or isolate | cells | read by | value
Nc1nc(=O)n([C@@H]2O[C@H](CO)[C@@H](O)[C@@H]2F)cc1I | KOS ACV-resistant | HEL | cytopathic effect | 6.8 µg/mL
O=C(O)P(=O)(O)O |  |  | plaque count | 10 µM
Nc1ncnc2c1ncn2C[C@@H](CO)OCP(=O)(O)O | (TK-) 2 strains | Primary rabbit kidney cells | cytopathic effect | 2 µg/mL
Nc1ncnc2c1ncn2C[C@@H](CO)OCP(=O)(O)O | ACV-resistant | HEL | cytopathic effect | 0.11 µg/mL
CC(=O)NC[C@H]1O[C@@H](n2ccc(=O)[nH]c2=O)C[C@@H]1OC(C)=O |  | BHK | plaque count | >1.6 µM
Nc1nc(N)c2ncn(C[C@H]3CC[C@@H](CO)C3)c2n1 | B2006 (TK-) | E6SM | cytopathic effect | >400 µg/mL
O=c1[nH]c(=O)n([C@H]2C[C@H](O)[C@@H](CO)O2)c[c]1[Hg+].OCC[S-] | KOS | HELA TK- | virus yield | 0.074 µg/mL
COc1cc(C2c3cc4c(cc3C[C@H]3COC(=O)[C@H]23)OCO4)cc(OC)c1OC | ITOH | MRC-5 |  | 0.004 µg/mL
Nc1ncnc2c1ncn2CCOCP(=O)(O)O | (TK-) 2 strains | Primary rabbit kidney cells | cytopathic effect | 7 µg/mL
Cc1cn([C@@H]2O[C@H](CO)[C@@H](O)[C@@H]2O)c(=O)[nH]c1=O | KOS PMEDAP-resistant | HEL | cytopathic effect | 0.45 µg/mL
O=c1[nH]c(=O)n([C@H]2C[C@H](O)[C@@H](CO)O2)c[c]1[Hg+].OCC(O)C[S-] | KOS | KB | virus yield | 0.001 µg/mL
Nc1ncnc2c1ncn2C[C@@H](CO)OCP(=O)(O)O | KOS PMEDAP-resistant | HEL | cytopathic effect | 0.06 µg/mL
Nc1nccc2c1ncn2[C@@H]1O[C@H](CO)[C@@H](O)[C@H]1O | KOS F McIntyre | PRK | cytopathic effect | ≥40 µg/mL
Nc1nc2c(ncn2C[C@H]2CC[C@@H](CO)C2)c(=O)[nH]1 | B2006 (TK-) | E6SM | cytopathic effect | >400 µg/mL
O=c1[nH]c(=O)n([C@H]2C[C@H](O)[C@@H](CO)O2)c[c]1[Hg+] | KOS | KB | virus yield | 0.59 µg/mL
CC(C)C(=O)NC[C@H]1O[C@@H](n2cc(I)c(=O)[nH]c2=O)C[C@@H]1O |  | BHK | plaque count | >1 µM
Nc1ccn(C[C@@H](CO)OCP(=O)(O)O)c(=O)n1 | KOS | HEL | cytopathic effect | 0.15 µg/mL
CC(=O)NC[C@H]1O[C@@H](n2cc(C)c(=O)[nH]c2=O)C[C@@H]1OC(C)=O |  | BHK | plaque count | >1.5 µM
COc1ccc2nc3cc(Cl)ccc3c(NC(CO)C(C)C)c2c1 |  | VERO 76 | plaque count | >5 µM
CCOC(=O)NC[C@H]1O[C@@H](n2cc(I)c(=O)[nH]c2=O)C[C@@H]1O |  | BHK | plaque count | >0.2 µM
COc1cc(O)c2c(=O)c3cccc(O)c3n(C)c2c1OC |  | HEF | plaque count | 0.56 µg/mL
Nc1nc(N)c2nnn(C[C@H]3CC[C@@H](CO)C3)c2n1 | KOS | E6SM | cytopathic effect | >400 µg/mL
O=c1[nH]cnc2c1ncn2CC(CO)OCP(=O)(O)O | (TK-) 2 strains | Primary rabbit kidney cells | cytopathic effect | >400 µg/mL
Nc1nc(Cl)c2ncn(C[C@H]3CC[C@@H](CO)C3)c2n1 | B2006 (TK-) | E6SM | cytopathic effect | >1 µg/mL
Nc1ncnc2c1ccn2[C@H]1C[C@@H](O)[C@@H](CO)O1 | KOS | PRK | cytopathic effect | 70 µg/mL
Nc1ncnc2c1ncn2C[C@H]1COP(=O)(O)CO1 | (TK-) 2 strains | Primary rabbit kidney cells | cytopathic effect | 2 µg/mL
N#Cc1cn([C@@H]2O[C@H](CO)C[C@H]2O)c2ncnc(N)c12 | KOS | PRK | cytopathic effect | ≥0.4 µg/mL
CC(=O)O[C@H]1C[C@H](n2cc(I)c(=O)[nH]c2=O)O[C@@H]1CN=[N+]=[N-] |  | BHK | plaque count | >1 µM
O=C(O)CP(=O)(O)O | PCV-resistant/A | HEL | cytopathic effect | 12 µg/mL
CC(=O)NC[C@H]1O[C@@H](n2cc(I)c(=O)[nH]c2=O)C[C@@H]1OC(C)=O |  | BHK | plaque count | >1 µM
NC(=O)c1cn([C@H]2C[C@H](O)[C@@H](CO)O2)c2ncnc(N)c12 | KOS | PRK | cytopathic effect | 2 µg/mL
COc1ccc2nc3cc(Cl)ccc3c(N)c2c1 |  | VERO 76 | plaque count | >10 µM
Nc1ccn(C[C@@H](CO)OCP(=O)(O)O)c(=O)n1 | KOS | U373-MG | cytopathic effect | 8.75 µg/mL
COc1ccc2nc3cc(Cl)ccc3c(N3CCC(O)CC3)c2c1 |  | VERO 76 | plaque count | >60 µM
Nc1nc(N)c2ncn(CC(CO)OCP(=O)(O)O)c2n1 | (TK-) 2 strains | Primary rabbit kidney cells | cytopathic effect | 10 µg/mL
COc1ccc2nc3cc(Cl)ccc3c(NCC[C@@H]3CCCN4CCCC[C@H]34)c2c1 |  | VERO 76 | plaque count | >3 µM
Nc1ncnc2c1ncn2[C@@H]1O[C@H](CO)[C@@H](O)[C@@H]1O |  |  | plaque count | 15 µM
N#Cc1cn([C@@H]2O[C@H](CO)[C@@H](O)[C@@H]2O)c2ncnc(N)c12 | S-148 | BSC-1 | virus yield | <3.5 µM
Nc1ncnc2c1ccn2[C@@H]1O[C@H](CO)[C@H](O)[C@H]1O | VMW1837 (TK-) | PRK | cytopathic effect | 0.07 µg/mL
CC(C)C(=O)NC[C@H]1O[C@@H](n2cc(I)c(=O)[nH]c2=O)C[C@@H]1OC(=O)C(C)C |  | BHK | plaque count | >1 µM
Nc1nc2c(ncn2CCC(CO)CO)c(=O)[nH]1 | PCV-resistant/A | HEL | cytopathic effect | >20 µg/mL
Nc1ncnc2c1ncn2[C@@H]1O[C@H](CO)C[C@@H]1O | KOS | U87MG | cytopathic effect | 5.4 µg/mL
O=C(O)P(=O)(O)O | PCV-resistant/A | HEL | cytopathic effect | 23 µg/mL
COc1cc([C@@H]2c3cc4c(cc3[C@H](O)[C@H]3COC(=O)[C@H]23)OCO4)cc(OC)c1OC | ITOH | MRC-5 |  | 0.009 µg/mL

The first 6 rows once more:

SMILES	strain or isolate	cells	read by	value
Nc1nc(=O)n([C@@H]2O[C@H](CO)[C@@H](O)[C@@H]2F)cc1I	KOS ACV-resistant	HEL	cytopathic effect	6.8 µg/mL
O=C(O)P(=O)(O)O			plaque count	10 µM
Nc1ncnc2c1ncn2C[C@@H](CO)OCP(=O)(O)O	(TK-) 2 strains	Primary rabbit kidney cells	cytopathic effect	2 µg/mL
Nc1ncnc2c1ncn2C[C@@H](CO)OCP(=O)(O)O	ACV-resistant	HEL	cytopathic effect	0.11 µg/mL
CC(=O)NC[C@H]1O[C@@H](n2ccc(=O)[nH]c2=O)C[C@@H]1OC(C)=O		BHK	plaque count	>1.6 µM
Nc1nc(N)c2ncn(C[C@H]3CC[C@@H](CO)C3)c2n1	B2006 (TK-)	E6SM	cytopathic effect	>400 µg/mL

Lines come from different laboratories, so protocols vary. ECn is the concentration giving n% inhibition of infection, replication or growth.